This passage reports pH optimum results from patent US8835147B2, “Cellular production of glucaric acid through recombinant expression of uronate dehydrogenase and myo-inositol oxygenase” (Massachusetts Institute of Technology, priority 2008, dated 2014).

The nature of this data set: Effect of pH on activity of purified Udhs. In kind it is biochemical. Conditions: purified Udh, FIG. 10a.

B1: A. tumefaciens Udh: 6×-His tagged uronate dehydrogenase from A. tumefaciens str. C58 (SEQ ID NO:24), expressed in E. coli and purified (protein, listed as Agrobacterium tumefaciens)
chain: MKRLLVTGAAGQLGRVMRERLAPMAEILRLADLSPLDPAGPNEECVQCDLADANAVNAMVAGCDGIVHLGGISVEKPFEQILQGNIIGLYNLYEAARAHGQPRIVFASSNHTIGYYPQTERLGPDVPARPDGLYGVSKCFGENLARMYFDKFGQETALVRIGSCTPEPNNYRMLSTWFSHDDFVSLIEAVFRAPVLGCPVVWGASANDAGWWDNSHLGFLGWKPKDNAEAFRRHITETTPPPDPNDALVRFQGGTFVDNPIFKQS
modifications: 6xHis tag
As to B1, the pH optimum amounted to 8.0.

B2: P. syringae Udh: 6×-His tagged uronate dehydrogenase from P. syringae pv. tomato DC3000 (SEQ ID NO:2), expressed in E. coli and purified (protein, listed as Pseudomonas syringae)
chain: MASAHTTQTPFNRLLLTGAAGGLGKVLRETLRPYSHILRLSDIAEMAPAVGDHEEVQVCDLADKDAVHRLVEGVDAILHFGGVSVERPFEEILGANICGVFHIYEAARRHGVKRVIFASSNHVIGFYKQNETIDAHSPRRPDSYYGLSKSYGEDMASFYFDRYGIETVSIRIGSSFPEPQNRRMMSTWLSFDDLTRLLERALYTPDVGHTVVYGVSDNKTVWWDNRFASKLDYAPKDSSEVFRAKVDAQPMPADDDPAMVYQGGAFVASGPFGDK
modifications: 6xHis tag
Turning to B2, the pH optimum was 8.0.
